# From the supplement of paper PMC9931576
# Human monoclonal antibodies against the spike receptor-binding domain (heavy:light variable regions). IC50 against pseudoviruses bearing the spike of naturally observed variants; lower = stronger; >10 µg/ml means not reached at the top dose. No active / inactive call. The stated detection limit is 0.0005 µg/ml; values near or below 0.001 µg/ml lie at the floor of the assay.
# How the values were obtained:
# Assay in all cases: pseudovirus neutralization IC50; higher = weaker neutralization
# [1] = biological target: SARS-CoV-2 Omicron BA.1 spike pseudovirus
# Experimental: (§1)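 Single-round VSV luciferase pseudovirus mixed with antibody dilutions for 1 h and put on Huh-7 cells for about a day; IC50 from the dose curve.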
# [2] = biological target: SARS-CoV-2 Omicron BA.2 spike pseudovirus
# Experimental: as §1
# [3] = biological target: SARS-CoV-2 Omicron BA.2.75 spike pseudovirus
# Experimental: as §1
# [4] = biological target: SARS-CoV-2 Omicron BA.2.75.2 spike pseudovirus
# Experimental: as §1
# [5] = biological target: SARS-CoV-2 Omicron BA.5 spike pseudovirus
# Experimental: as §1
# [6] = biological target: SARS-CoV-2 Omicron BM.1.1.1 spike pseudovirus
# Experimental: as §1
# [7] = biological target: SARS-CoV-2 Omicron BQ.1.1 spike pseudovirus
# Experimental: as §1
# [8] = biological target: SARS-CoV-2 Omicron BR.2 spike pseudovirus
# Experimental: as §1
# [9] = biological target: SARS-CoV-2 Omicron CA.1 spike pseudovirus
# Experimental: as §1
# [10] = biological target: SARS-CoV-2 Omicron XBB spike pseudovirus
# Experimental: as §1
# [11] = biological target: SARS-CoV-2 early D614G spike pseudovirus
# Experimental: as §1
Binder,pseudovirus neutralization IC50 [1],pseudovirus neutralization IC50 [2],pseudovirus neutralization IC50 [3],pseudovirus neutralization IC50 [4],pseudovirus neutralization IC50 [5],pseudovirus neutralization IC50 [6],pseudovirus neutralization IC50 [7],pseudovirus neutralization IC50 [8],pseudovirus neutralization IC50 [9],pseudovirus neutralization IC50 [10],pseudovirus neutralization IC50 [11]
BD58-0513 (protein) chain 1: EVQLVQSGAEVKKPGESLKISCKASGYNFTNYWIGWVRQMPGKGLEWMGIIYPGDSDTRYSPSLQSQVTISADKSIRTAYLQWTSLKASDTAMYYCARVWVAVSMTTADYFDYWGQGTLVTVSS chain 2: DIQLTQSPSSLSASVGDRVTITCRASQTISRYLNWYQQKQGKAPKVLIYAASSLQSGVPSRFSGRGSGTDFTLTISTLQPEDFATYYCQQSYSTLYTFGQGTKLEIK,> 10 µg/mL,0.000655 µg/mL,0.0971 µg/mL,0.0986 µg/mL,0.00122 µg/mL,0.075 µg/mL,0.0307 µg/mL,0.115 µg/mL,0.0778 µg/mL,0.135 µg/mL,> 10 µg/mL
BD58-0517 (protein) chain 1: EVQLVESGGGLVKPGGSLRLSCAASGFTFSRYSMNWVRQAPGKGLEWVSSLSSRSTYLYYADSVKGRFTISRDNAKNSLYLQMNSLRAEDTAVYYCARDSADIYDYVWGTYRLGDYWGQGTLVTVSS chain 2: QSVLTQPPSASGTPGQRVTISCSGSNSNIKSNAVNWYQQLPRTAPKLLLYNNNQRPSGVPDRFSGSKSGTSASLAISGLQSEDEADYYCAAWDDSLTGWVFGGGTQLTVL,0.0154 µg/mL,0.00109 µg/mL,0.0118 µg/mL,0.034 µg/mL,0.000788 µg/mL,0.0666 µg/mL,0.0509 µg/mL,0.0654 µg/mL,0.0833 µg/mL,0.0438 µg/mL,> 10 µg/mL
BD58-0488 (protein) chain 1: EVQLVESGGGLVQPGGSLRLSCAASGFTVDSNYMNWVRQAPGKGLELVSLVYSGGNTYYADSVKDRFTISRDNSKNTLYLQMNSLRAEDTAMYYCARGDLELFVWGQGTLVTVSS chain 2: DIQMTQSASSLSASVGDRVTITCRASQSISSYLNWYQQKPGKAPKLLIYAASSLHSGVPSRFSGSGSGTDFTLTISSLQPEDFATYYCQQSYTSPRLTFGGGTKVEIK,0.0582 µg/mL,0.00206 µg/mL,> 10 µg/mL,> 10 µg/mL,> 10 µg/mL,> 10 µg/mL,> 10 µg/mL,> 10 µg/mL,> 10 µg/mL,> 10 µg/mL,> 10 µg/mL
BD58-0528 (protein) chain 1: QVQLVQSGAEVKKPGASVTVSCKVSGYTLIELSMHWVRQAPGKGLEWMGSFDPEHRETIYAQKFQGRVTMTEDTSTDTAYMELSSLRSEDTAVYYCATSPTYYYGSGSFYKAFDSWGQGTLVTVSS chain 2: EIVLTQSPATLSLSPGERATLSCRASQSVSSYLAWYQQKPGQAPRLLIYDASNRATGIPARFSGSGSGTDFTLTISSLEPEDFAVYYCQQRSDWPPWTFGQGTKVEIK,0.0039 µg/mL,0.00142 µg/mL,> 10 µg/mL,> 10 µg/mL,> 10 µg/mL,> 10 µg/mL,> 10 µg/mL,> 10 µg/mL,> 10 µg/mL,> 10 µg/mL,> 10 µg/mL
BD58-0473 (protein) chain 1: QVQLVQSGAEVKKPGASVKVSCKVSGYTLTELSMHWVRQAPGKGLEWMGGFDPELGETIYAQKFQGRVTMTEDTSTDTAYMQLSSLRSEDTAVYYCAIDFHYYDSTGESDYWGQGTLVTVSS chain 2: QSVLTQPPSVSAAPGQKVTISCSGSSSSIRNNYVSWYQQLPGTAPKLLIYDNNKRPSGIPDRFSGSKSGPSATLGITGLQTGDEADYYCGTWDSSLSAWVFGGGTKLTVL,> 10 µg/mL,0.000386 µg/mL,0.263 µg/mL,0.483 µg/mL,0.00733 µg/mL,> 10 µg/mL,0.288 µg/mL,0.0653 µg/mL,0.304 µg/mL,> 10 µg/mL,> 10 µg/mL
BD58-0546 (protein) chain 1: EVQLVESGGGVVQPGGSLRLSCAVSGFRFDDYAMHWVRQTPGKGLEWVSLISGDGRSAYYADSVKGRFTISRDNSENSLYLQMNSLRTEDTAFYYCSKDIGITSFWYFGATQIDYWGQGTLVTVSS chain 2: QSVLTQPPSVSAAPGQKVTISCSGSSSNIGNNYVSWYQQLPGTAPKLLIFDNDQRPSGIPDRFSGSKSVTSATLAITGLQTGDEADYYCGTWDSSLSAGVFGGGTKLTVL,> 10 µg/mL,0.000497 µg/mL,1.48 µg/mL,3.53 µg/mL,0.126 µg/mL,> 10 µg/mL,> 10 µg/mL,> 10 µg/mL,> 10 µg/mL,> 10 µg/mL,> 10 µg/mL
BD56-282 (protein) chain 1: QVTLRESGPALVKPTQTLTLTCTFSGFSLSTSGMCVSWIRQPPGKALEWLALIDWDDDKYYSTSLKTRLTISKDTSKNQVVLTMTNMDPVDTATYYCAHIRGDFYYYGMDVWGQGTTVTVSS chain 2: SYELTQPPSVSVSPGQTARITCSGDALPNQYAYWYQQKPGQAPVLVIYKDSERPSGIPERFSGSSSGTTVTLTISGVQAEDEADYYCQSSDTNTPVVFGGGTKLTVL,0.00122 µg/mL,0.00774 µg/mL,0.0166 µg/mL,0.0294 µg/mL,0.0108 µg/mL,0.0197 µg/mL,4.3 µg/mL,0.0175 µg/mL,0.0283 µg/mL,0.388 µg/mL,> 10 µg/mL
BD58-0483 (protein) chain 1: QVQLQESGPGLVKPSQTLSLTCTVSGGSISSGGYYWSWIRQHPGKGLEWIGYIYNSGSTYYNPSLKSRVTISVDTSKNQFSLKLSSVTAADTAVYYCARGVDSSWFGYFDLWGRGTLVTVSS chain 2: QFALTQPASVSGSPGQSITISCTGTSSDFGGYNYVSWYQQHPGKAPKLMIYDISNRPSGVSNRFSGSKSGNTASLTISGLQAEDEADYFCSSYTSSTTPCVVFGGGTEVTVL,0.287 µg/mL,0.0118 µg/mL,0.155 µg/mL,0.249 µg/mL,> 10 µg/mL,> 10 µg/mL,> 10 µg/mL,> 10 µg/mL,> 10 µg/mL,> 10 µg/mL,> 10 µg/mL
BD58-0491 (protein) chain 1: EVQLVQSGAEVKKPGESLRISCKVSGYNFASFWINWVRQMPGKGLEWMGRIDPSDSYTDYSPSFQGHVTVSADKSITTAYLLWSSLKASDTAMYYCARGGPSTYDVGGYPTGWFDPWGQGTLVTVSS chain 2: EIVLTQSPGTLSLSPGERATLSCRASQSVRRSYLAWYQQKPGQAPRLLIYGASSRATGIPDRFSGSGSGTDFTLTISRLEPEDFAVYYCQQYGRSPPLTFGPGTKVDIK,0.447 µg/mL,0.0167 µg/mL,> 10 µg/mL,> 10 µg/mL,> 10 µg/mL,> 10 µg/mL,> 10 µg/mL,> 10 µg/mL,> 10 µg/mL,> 10 µg/mL,> 10 µg/mL
BD58-0511 (protein) chain 1: EVQLVESGGGLVQPGGSLRVSCAASGFTFSSFGMNWVRQAPGKGLEWVSYISSSSSTIYYADSVKGRLTISRDNARKSLYLQMNSLKAEDTAVYYCARGGLLGIAVAGLAPFDYWGQGTLVTVSS chain 2: DIQMTQSPSSLSASVGDRVTITCQASQDIDNFLNWYQQKPGKAPQLLIVDASDLETGVPSRFSGSGSGTEFTFTINSLQPEDVATYFCQQYTDLPLTFGGGTKVEIK,0.0793 µg/mL,0.0882 µg/mL,> 10 µg/mL,> 10 µg/mL,> 10 µg/mL,> 10 µg/mL,> 10 µg/mL,> 10 µg/mL,> 10 µg/mL,> 10 µg/mL,> 10 µg/mL
